# Paper PMC3334918, “Mutagenesis and Functional Studies with Succinate Dehydrogenase Inhibitors in the Wheat Pathogen Mycosphaerella graminicola” (PLoS ONE, 2012)
# Legend:
# Experiment in all cases: in vitro succinate: Q0/DCPIP activity test, purified mitochondria
# Assay type in all cases: biochemical, Mycosphaerella graminicola
# Conditions in all cases: ratio IC50mutant/IC50WT, single determination
# SDH C_S83G (strain Flu1) = system: SDH C_S83G (strain Flu1)
# Method: (§1) To explore the sensitivity profiles conferred by amino acid substitutions at the cellular and mitochondrial level, we determined sensitivity towards 4 different compounds for 26 of the identified substitution types both in vivo using liquid culture growth (AE media) and in vitro using purified mitochondria and the succinate: Q0/DCPIP activity test (Table 3). […] Resistance factors (RF) were determined as the ratio IC50mutant/IC50WT. […] Qp site mutations are well known to influence SDH enzyme activity and stability upon catalysis, [13], [38], [41].
# (§2) Strains were grown in 1 liter TSM40 units. Cultures were inoculated at 0.05 OD600 nm and grown on a reciprocal shaker (110 rpm, 22°C) for 5 days. Cells were harvested by vacuum filtration and disrupted in liquid nitrogen using a mortar and pestle. Resultant powder was re-suspended to 10% w/v in mitochondrial extraction buffer (10 mM KHPO4 pH7.2; 10 mM KCl, 10 mM MgCl2, 0.5 M sucrose, 0.2 mM EDTA, 2 mM PMSF). Extract was clarified by centrifugation (5,000 g, 4°C for 10 minutes, 2 times), intact mitochondria were then pelleted at 10,000 g for 20 minutes at 4°C. […] This volume was transferred to conical 1.5 ml tubes and re-centrifuged, 10,000 g for 10 minutes at 4°C. […] Mitochondrial suspensions were brought to a final concentration of 10 mg ml^−1 in extraction buffer and stored at −80°C until used.
# (§3) Mitochondrial suspensions were incubated at 30°C for 30 minutes in extraction buffer supplemented with 10 mM succinate prior to enzymatic measurements.
# (§4) A reaction plate was equilibrated for 10 minutes at 30°C before starting the reaction. DCPIP reduction was conducted at 30°C and monitored at 595 nm using a HTS7000 microtiterplate reader (Perkin Elmer). For calculations a molecular extinction coefficient of ε = 17 mM^−1 cm^−1 was used.
# (§5) Inhibitor concentrations ranged between 1 mM and 0.95 nM with uniform 4× dilution factor steps (11 inhibitor concentrations+DMSO control). 96 wells plates were pre equilibrated at reaction temperature (30°C) for 10 minutes before the reactions were started by the addition of 5 µl preactivated M. graminicola mitochondrial suspension. Calculated absorbance slopes (OD/hour) were used for IC50 calculations using Graphpad Prism 5.0 software non linear curve fitting against log inhibitor concentrations.
# [1] = system: SDH C_L85P (strain Cbx12)
# Method: as §1, §2, §3, §4, §5
# [2] = system: SDH B_S218F (strain Flu41)
# Method: as §1, §2, §3, §4, §5
# SDH C_A84V (strain Flu4) = system: SDH C_A84V (strain Flu4)
# Method: as §1, §2, §3, §4, §5
# [3] = system: SDH D_D129G (strain Cbx67)
# Method: as §1, §2, §3, §4, §5
SMILES,Resistance Factors (RFs) in vitro (SDH C_S83G (strain Flu1)),Resistance Factors (RFs) in vitro [1],Resistance Factors (RFs) in vitro [2],Resistance Factors (RFs) in vitro (SDH C_A84V (strain Flu4)),Resistance Factors (RFs) in vitro [3]
O=C(Nc1ccccc1-c1ccc(Cl)cc1)c1cccnc1Cl [Boscalid],1392.4,34.7,46.3,3.7,2052.4
CC1=C(C(=O)Nc2ccccc2)SCCO1 [Carboxin],11.7,265.4,46.4,1.2,2030.3
O=C(NCCc1ncc(C(F)(F)F)cc1Cl)c1ccccc1C(F)(F)F [Fluopyram],201.0,130.1,276.5,102.7,1880.2
